Measurements reported in the supplement of paper PMC9931576.
Human monoclonal antibodies against the spike receptor-binding domain (heavy:light variable regions). IC50 against pseudoviruses bearing the spike of naturally observed variants; lower = stronger; >10 µg/ml means not reached at the top dose. No active / inactive call. The stated detection limit is 0.0005 µg/ml; values near or below 0.001 µg/ml lie at the floor of the assay.

B1: BD56-1707 (protein)
chain 1: EVHLVESGGGAVQPGGSLRLSCTASRFTFDDHAMHWVRQAPGKGLEWLSLISGDGGQTYHADSVKGRFSISRDNSKKSLYLQMSNLKTEDTAVYYCAKDMGWWGVTDFYGIDVWGQGTTVTVSS
chain 2: EIVLTQSPATLSLSPGERATLSCRASESIRTFLAWYQQKPAQAPRLLIYDASNRATGTPARFSGSGSGTDFTLTISSLEPEDFAVYYCHQRLNWPSFGQGTRLDIK
B2: BD56-1708 (protein)
chain 1: QVQLVQSGAEVKKPGSSVKVSCKASGGTFSSHSISWVRQAPGQGLEWMGRIFPILGVPNYGHHFQDRVTITADKSTSTAYLELTSLRSQDTAVYYCAREALAPANTWYFDLWGRGTLVTVSS
chain 2: QSVLTQPPSVSGAPGQRVTISCTGSNSNIGAGYDVHWYQQLPGTAPKLLIYDNNNRPSGVPDRFSGSKSGTSASLAITGLQAEDEADYYCQSYDSSLSDVVFAEGTKLTVL
B3: BD56-1710 (protein)
chain 1: EVQLVQSGGGLVQPGGSLRLSCAASGFIFSDYPMNWVRQVPGKGLEWVSYISSSSRTIYYADSVKGRFTISRDNARSSLYLHMSRLRDDDTAVYYCARADLWGYDIVTDYSALFDNWGQGTLVTVSS
chain 2: EIVLTQSPGTLSLSPGERATLSCRASQTVSSTYLAWYQQKPGQAPRLVIYGASSRASGIPDRFSGSGSGTDFTLTISRLEPEDFAVYYCQQSDTPPATFGQGTKVDIK
B4: BD56-1712 (protein)
chain 1: QVHLVQSGAEVRKPGASVKVSCKASGYSLTSHFMHWVRQAPGQGLEWMGIINPSGSSADYAQRFQGRVSMTRDTSTSTVYMELSSLRSEDTAVYYCARGHRVAVAGLLDYWGQGTLVTVSS
chain 2: QTVVTQEPSLTVSPGGTVTLTCASSTGAVTSGYFPNWFQQKPGQAPRALIYSTSNRHSWTPARFSGSLLGGKAALALSGVQPEDEAEYYCLLYYGGAWVFGGGTKVTVL
B5: BD56-1715 (protein)
chain 1: EVQLVESGGGLAQPGGSLRVSCAASGFMFGACSMSWVRQAPGKGLEWVANIKQDGSDKYYVDSVKGRFTISRDNAKNSLFLQMNSLRAEDTAIYYCARVDPGVVADDLYFDYWGQGTLVTVSS
chain 2: SSELTQPPSVSVSPGQTARITCSGDAFPNQYSYWYQQKPGQAPVMVIYKDNERPSGIPERFSGSSSGTTVTLTISGVQAEDEADYYCQSADSRSVVFGGGTKLTVL
B6: BD56-1716 (protein)
chain 1: EVQLVESGGHLVKPGGSLRLSCAASGFTFSNAWMNWVRQAPGKGLEWIGRIKSKTDGGSTDYAAPVKGRFTISRDDSKNTLYLQMNSLKTEDTAVYFCSTDGGLFYDYGDLDGFDIWGQGTMVTVSS
chain 2: DIVMTQSPLSLPVTPGEPASISCTSSQSLLHYNGNNYLDWYLQKPGQSPQLLIYLGSNRASGVPARFSGSGSGTDFTLKISRVEAEDVGVYYCMQVLQTPRTFGQGTKVEIK

molecular target: SARS-CoV-2 Omicron BA.1 spike pseudovirus; assay: pseudovirus neutralization IC50; higher = weaker neutralization
Description: (§1)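 Single-round VSV luciferase pseudovirus mixed with antibody dilutions for 1 h and put on Huh-7 cells for about a day; IC50 from the dose curve.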

B1 was tested. Which “pseudovirus neutralization IC50” value did it give?
The value was 0.578 µg/mL.

With B2 as the binder, how does the “pseudovirus neutralization IC50” value read?
Its value is 0.0155 µg/mL.

Which “pseudovirus neutralization IC50” value does the source give for B3 here?
The value was over 10 µg/mL.

B4 was tested. Which “pseudovirus neutralization IC50” value did it give?
The value was 4.36 µg/mL.

For B5, which “pseudovirus neutralization IC50” value is on record?
The value was over 10 µg/mL.

Which “pseudovirus neutralization IC50” value does the source give for B6 here?
The value was 0.0173 µg/mL.

molecular target: SARS-CoV-2 Omicron BA.2 spike pseudovirus; assay: as above
Description: as §1

For B1, which “pseudovirus neutralization IC50” value is on record?
The value was 0.375 µg/mL.

Which “pseudovirus neutralization IC50” value does the source give for B2 here?
Its value is 0.0103 µg/mL.

Which “pseudovirus neutralization IC50” value does the source give for B3 here?
Its value is over 10 µg/mL.

How did the “pseudovirus neutralization IC50” value turn out when B4 was run?
The value was 1.08 µg/mL.

B5 was tested. Which “pseudovirus neutralization IC50” value did it give?
Its value is over 10 µg/mL.

B6 was tested. Which “pseudovirus neutralization IC50” value did it give?
The value was 0.00619 µg/mL.

molecular target: SARS-CoV-2 Omicron BA.2.75 spike pseudovirus; assay: as above
Description: as §1

For B1, which “pseudovirus neutralization IC50” value is on record?
The value was 0.565 µg/mL.

How did the “pseudovirus neutralization IC50” value turn out when B2 was run?
The value was 0.0239 µg/mL.

How did the “pseudovirus neutralization IC50” value turn out when B3 was run?
Its value is over 10 µg/mL.

For B4, which “pseudovirus neutralization IC50” value is on record?
The value was over 10 µg/mL.

How did the “pseudovirus neutralization IC50” value turn out when B5 was run?
Its value is over 10 µg/mL.

B6 was tested. Which “pseudovirus neutralization IC50” value did it give?
The value was 0.0149 µg/mL.

molecular target: SARS-CoV-2 Omicron BA.5 spike pseudovirus; assay: as above
Description: as §1

B1 was tested. Which “pseudovirus neutralization IC50” value did it give?
The value was 3.85 µg/mL.

With B2 as the binder, how does the “pseudovirus neutralization IC50” value read?
Its value is 2.63 µg/mL.

Which “pseudovirus neutralization IC50” value does the source give for B3 here?
Its value is over 10 µg/mL.

With B4 as the binder, how does the “pseudovirus neutralization IC50” value read?
The value was over 10 µg/mL.

How did the “pseudovirus neutralization IC50” value turn out when B5 was run?
The value was over 10 µg/mL.

For B6, which “pseudovirus neutralization IC50” value is on record?
The value was 0.00814 µg/mL.

molecular target: SARS-CoV-2 Omicron BQ.1.1 spike pseudovirus; assay: as above
Description: as §1

Which “pseudovirus neutralization IC50” value does the source give for B1 here?
The value was over 10 µg/mL.

For B2, which “pseudovirus neutralization IC50” value is on record?
The value was over 10 µg/mL.

For B3, which “pseudovirus neutralization IC50” value is on record?
Its value is over 10 µg/mL.

For B4, which “pseudovirus neutralization IC50” value is on record?
The value was over 10 µg/mL.

B5 was tested. Which “pseudovirus neutralization IC50” value did it give?
Its value is over 10 µg/mL.

Which “pseudovirus neutralization IC50” value does the source give for B6 here?
The value was over 10 µg/mL.

molecular target: SARS-CoV-2 Omicron XBB spike pseudovirus; assay: as above
Description: as §1

B1 was tested. Which “pseudovirus neutralization IC50” value did it give?
The value was over 10 µg/mL.

How did the “pseudovirus neutralization IC50” value turn out when B2 was run?
The value was over 10 µg/mL.

How did the “pseudovirus neutralization IC50” value turn out when B3 was run?
The value was over 10 µg/mL.

Which “pseudovirus neutralization IC50” value does the source give for B4 here?
The value was over 10 µg/mL.

Which “pseudovirus neutralization IC50” value does the source give for B5 here?
Its value is over 10 µg/mL.

B6 was tested. Which “pseudovirus neutralization IC50” value did it give?
Its value is over 10 µg/mL.

molecular target: SARS-CoV-2 early D614G spike pseudovirus; assay: as above
Description: as §1

Which “pseudovirus neutralization IC50” value does the source give for B1 here?
The value was 0.4 µg/mL.

Which “pseudovirus neutralization IC50” value does the source give for B2 here?
The value was 0.0661 µg/mL.

With B3 as the binder, how does the “pseudovirus neutralization IC50” value read?
Its value is over 10 µg/mL.

With B4 as the binder, how does the “pseudovirus neutralization IC50” value read?
The value was 0.00766 µg/mL.

With B5 as the binder, how does the “pseudovirus neutralization IC50” value read?
The value was over 10 µg/mL.

With B6 as the binder, how does the “pseudovirus neutralization IC50” value read?
The value was 0.0153 µg/mL.
